Data published in patent US9308215B2, “Avermectins and milbemycins as anti-mycobacterial agents” (priority 2013, dated 2016).
Where two headings read alike, the source gives them in different places.

Tested on: Mycobacterium tuberculosis (H37Rv)
Settings: Acute (SCID)

Row | Compound | Toxicity (1 mg/kg bw PO, 5% DMSO) | Toxicity (10 mg/kg bw PO, 5% DMSO) | Toxicity (10 mg/kg bw PO, sesame oil) | Toxicity (50 mg/kg bw PO, sesame oil) | Toxicity (100 mg/kg bw PO, sesame oil) | Toxicity (200 mg/kg bw PO, sesame oil)
1 | CO[C@H]1/C=C/O[C@@]2(C)Oc3c(C)c(O)c4c(O)c(c(/C=N/N5CCN(C)CC5)c(O)c4c3C2=O)NC(=O)/C(C)=C\C=C\[C@H](C)[C@H](O)[C@@H](C)[C@@H](O)[C@@H](C)[C@H](OC(C)=O)[C@@H]1C [Rifampin] | None | None |  |  |  | 
2 | CO[C@H]1C[C@H](O[C@@H]2/C(C)=C/C[C@@H]3C[C@@H](C[C@]4(CC[C@H](C)[C@@H](C5CCCCC5)O4)O3)OC(=O)[C@@H]3C=C(C)/C(=N/O)[C@H]4OC/C(=C\C=C\[C@@H]2C)[C@]43O)O[C@@H](C)[C@@H]1O [Selamectin] |  |  | None | None | Low | Low/moderate
